# Assay results from PubChem BioAssay AID1721 (National Center for Advancing Translational Sciences (NCATS), 2009).
# Sequences of proteins named here, by UniProt entry; tags and fusion partners are left off. A change or cut given only in a name is not applied to a line headed by its entry.
# UniProt Q27686: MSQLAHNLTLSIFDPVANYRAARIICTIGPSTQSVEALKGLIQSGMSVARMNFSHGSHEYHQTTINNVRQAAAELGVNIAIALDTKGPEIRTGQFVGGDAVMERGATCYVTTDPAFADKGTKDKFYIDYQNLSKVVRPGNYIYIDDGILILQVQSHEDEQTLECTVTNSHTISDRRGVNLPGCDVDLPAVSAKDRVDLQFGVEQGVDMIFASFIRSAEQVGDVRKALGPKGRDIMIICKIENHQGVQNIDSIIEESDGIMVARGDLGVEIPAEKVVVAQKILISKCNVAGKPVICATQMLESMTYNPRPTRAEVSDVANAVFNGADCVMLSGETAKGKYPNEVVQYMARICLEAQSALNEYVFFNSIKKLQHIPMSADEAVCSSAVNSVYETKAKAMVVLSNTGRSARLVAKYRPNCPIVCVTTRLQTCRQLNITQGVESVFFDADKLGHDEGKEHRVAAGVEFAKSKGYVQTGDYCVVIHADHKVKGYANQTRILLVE
# Where “and” joins values, the source holds several entries; their conditions need not be identical. Equal values may be shown once. The entries are a selection whose mix differs from that of the whole data set. Calls of active or inactive are those of the source. The call rests on the fitted dose curve; in most records, active means well fitted inhibition curve with a large enough effect; inconclusive means small, poorly fitted or top-dose-only effect, or another doubt; inactive means no such curve, though single readings can be large or run the other way.
# Biological target: Pyruvate kinase (Leishmania mexicana) (UniProt Q27686)
# Assay: qHTS Assay for Inhibitors of Leishmania Mexicana Pyruvate Kinase (LmPK)
# Settings: purified LmPK, Kinase-Glo ATP luminescence, 1 h; at 57.5 µM (top of the series)
# From the text: NIH Chemical Genomics Center [NCGC] Malcolm Walkinshaw, Hugh Morgan, Linda Gilmore University of Edinburgh, UK MLPCN Grant: 1 R03 MH085697-01 NCGC Assay Overview: Pyruvate kinase (L. Mexicana) (LmPK) enzyme was supplied as a highly purified (>95% pure) sulphate-free preparation from University of Edinburgh, UK and assayed for its ability to generate ATP from ADP using phosphoenolpyruvate (PEP) as a substrate. ATP generation was detected in a coupled reaction by luciferase-mediated luminescence, an ATP-dependent process. […] The enzyme was assayed at an intermediate level of activity to screen for both inhibitors and activators.
# NCGC Assay Protocol Summary: Three uL of enzyme mix (kept on ice) in assay buffer (50 mM Imidazole pH7.2, 50 mM KCl, 7 mM MgCl2, 0.01% Tween 20, 0.05% BSA) containing PEP (0.5 mM final concentration) and LmPK (0.1 nM final concentration) was dispensed into white solid bottom 1,536 well microtiter plates. 23 nL of compound were delivered by a pin tool and 1 uL of ADP mix in assay buffer (r.t; 0.1 mM final ADP concentration) was added. Plates were incubated at room temperature for 1 hour. Two uL of detection mix (Kinase-Glo, Promega; at 4 degree Celsius protected from light) was added and luminescence read by a ViewLux (Perkin Elmer) at 1 second exposure/plate. Data were normalized to the uninhibited and AC100 inhibition (no enzyme). To monitor activation, the first column contained a five-fold concentration of LmPK (0.5 nM).
# On the % scale 0 is the no-effect control and ±100 the full control effect.
row,SMILES,"activity change, negative = inhibition"
1,CN1CCCC(OC(=O)C(c2ccccc2)c2ccccc2)C1 (stereo not drawn),inactive: -0.377%
2,Clc1ccc(Cl)c(NC2=NCC(CBr)S2)c1 (stereo not drawn),inactive: 1.97%
3,Cc1ccc(OP(=O)(Nc2nccs2)Oc2ccc(C)cc2)cc1,inactive: 0.919%
4,COc1ccccc1OP(=O)(Nc1ccc(C)cn1)Oc1ccccc1OC,inactive: -5.4%
5,Cc1ccc(N/C(=N/P(=O)(N2CCOCC2)N2CCOCC2)N2CCOCC2)cc1,inactive: 1.83%
6,NC(=O)c1cc([N+](=O)[O-])cc([N+](=O)[O-])c1N,inactive: -2.7%
7,O=C(NC(Sc1ccncn1)C(Cl)(Cl)Cl)c1ccccc1 (stereo not drawn),inactive: 1.8%
8,Cc1c2non([O-])c-2c(C)[n+](=O)[n+]1[O-],inactive: 1.07%
9,Oc1ccccc1CNc1ccccn1,inactive: 11.2%
10,Nc1cc(N)c2nonc2c1[N+](=O)[O-],inactive: 2.06%
11,CC(C)CC(=O)NC(Sc1ccc(Cl)cc1)C(Cl)(Cl)Cl (stereo not drawn),inactive: 0.232%
12,Cc1ccc(NP(=O)(Oc2ccccc2F)Oc2ccccc2F)nc1,inactive: 2.71%
13,Cc1cc(SC(NC(=O)c2ccc(F)cc2)C(Cl)(Cl)Cl)ncn1 (stereo not drawn),inactive: 2.91%
14,CCOP(=O)(Nc1ccccc1)OCC,inactive: 2.92% and inactive: 0.17%
15,O=P(Nc1nc2ccc(Cl)cc2s1)(c1ccccc1)c1ccccc1,inactive: -3.08%
16,CC(=O)Nc1ccc([As](=O)(O)O)cc1,inactive: -0.908%
17,O=C(O)c1ccccc1[As](=O)(O)O,inactive: -8.03%
18,Nc1cccc2ccc([As](=O)(O)O)cc12,inactive: 5.7%
19,CCN(N=Nc1nonc1N)c1nonc1N,inactive: -0.483%
20,O=[N+]([O-])c1cc([N+](=O)[O-])c(CCN2CCOCC2)c([N+](=O)[O-])c1,inactive: 8.38%
21,O=C(Nc1cc([As](=O)(O)O)ccc1O)c1ccccc1,inactive: 5.77%
22,O=C(O)CNc1ccc([As](=O)(O)O)cc1,inactive: -0.544%
23,O=[N+]([O-])c1cccc(NC2=NCC(CBr)S2)c1 (stereo not drawn),inactive: -4.87%
24,O=[N+]([O-])c1ncn(CCn2ncnc2[N+](=O)[O-])n1,inactive: 1.45%
25,CC(C)(C)C(=O)NC(Sc1ccncn1)C(Cl)(Cl)Cl (stereo not drawn),inactive: 3.47%
26,CCc1nc2c(n1)c1c(non1O)c1c2no[n+]1[O-],inactive: -6.62%
27,O=[N+]([O-])c1cc([N+](=O)[O-])c(CCNc2ccccc2)c([N+](=O)[O-])c1,inactive: -6.23%
28,Cc1ccc(NP(=O)(Oc2ccccc2)Oc2ccccc2)nc1,inactive: -0.252%
